# US4835100A (priority 1986, dated 1989)
# System: monoclonal antibody (2F5)
# Assay type: binding, mouse
smiles,measurement,value
"COc1cc2c(c3oc(=O)c4c(c13)CCC4=O)[C@@H]1C=CO[C@@H]1O2 [Aflatoxin B1, aflatoxin B1]",detection limit,0.5 ng/mL
same,limit of detection,25 pg/assay
